Anti-infective test results gathered from many reports (values: NIAID ChemDB through PubChem).

Common to all: growth or infection tests; agent: HIV-1; method: syncytia; endpoint: EC50

An empty or dashed field is not shown.

{"smiles": "Cc1occc1C(=S)Nc1ccc(Cl)c(OC(=O)OC(C)C)c1", "cells": "CEM", "changes": "RT-Y181C", "result": "0.3 µM"}
{"smiles": "CCc1c(Cc2cccc3ccccc23)nc(SCC(=O)c2cccs2)[nH]c1=O", "strain": "IIIB", "cells": "C8166", "result": "0.62 µM"}
{"smiles": "Cc1ccc(CSc2cc(NC(=S)c3ccoc3C)ccc2Cl)cc1", "cells": "CEM", "result": "0.312 µM"}
{"smiles": "CC(C)CN(C[C@@H](O)[C@H](NC(=O)O[C@H]1CCOC1)Sc1ccccc1)S(=O)(=O)c1ccc(N)cc1", "cells": "MT-4", "result": ">50 µM"}
{"smiles": "CN(C)CCCc1cccnc1CN(C)Cc1nc2ccccc2[nH]1", "strain": "IIIB", "cells": "C8166", "result": "9.247 µM"}
{"smiles": "Cc1ccccc1C(=S)Nc1ccc(Cl)c(C(=O)OC(C)C)c1", "cells": "CEM", "changes": "RT-V106A", "result": "16 µM"}
{"smiles": "Cc1occc1C(=S)Nc1ccc(Cl)c(OCCC(C)C)c1", "cells": "CEM", "result": "0.019 µM"}
{"smiles": "CCOc1ccccc1N1CCN(c2ccc3c(=O)c(C(=O)O)cn(-c4ccc(Cn5cncn5)cc4)c3c2)CC1", "cells": "PBL", "result": "0.3 µM"}
{"smiles": "Cc1ccsc1C(=O)Nc1ccc(Cl)c(C(=O)OC2CCCCC2)c1", "cells": "CEM", "changes": "RT-L100I", "result": "14 µM"}
{"smiles": "O=S(=O)(Cc1ccccc1I)c1cccc[n+]1[O-]", "strain": "RF", "cells": "CEM", "result": "9 µg/mL"}
{"smiles": "COc1ccnc2[nH]cc(C(=O)C(=O)N3CCN(C(=O)c4ccccc4)C[C@H]3C)c12", "strain": "YU2 WT", "cells": "Cf2Th-CD4+ CCR5+/293T", "result": "4 µM"}
{"smiles": "CC(C)OC(=O)c1cc(NC(=S)c2ccsc2)ccc1Cl", "strain": "IIIB", "cells": "CEM", "result": "1.3 µM"}
{"smiles": "Cc1ccc(C)c(C(C)S(=O)(=O)c2c(C)ccc[n+]2[O-])c1", "strain": "IIIB", "cells": "CEM", "changes": "RT-Y188H", "result": "8.8 µg/mL"}
{"smiles": "CC(C)=CCOc1cc(NC(=S)c2ccsc2C)ccc1Cl", "cells": "CEM", "result": "0.009 µM"}
{"smiles": "Cc1c(Cc2cccc3ccccc23)nc(Sc2cccs2)[nH]c1=O", "strain": "IIIB", "cells": "C8166", "result": "43.3 µM"}
{"smiles": "CC(C)Oc1ccccc1N1CCN(c2ccc3c(=O)c(C(=O)O)cn(-c4ccc(Cn5cncn5)cc4)c3c2)CC1", "cells": "PBL", "result": "0.3 µM"}
{"smiles": "O=C1c2ccccc2[C@]2(O)C3C4C[C@H]5CC(C[C@H]3C5)C4N12", "strain": "IIIB", "cells": "CEM", "result": ">20 µg/mL"}
{"smiles": "O=[N+]([O-])c1ccc[n+]([O-])c1SCc1ccccc1", "strain": "MN", "cells": "CEM", "result": "13 µg/mL"}
{"smiles": "Cc1ccc(C)c(CS(=O)c2ccc(Cl)c[n+]2[O-])c1", "strain": "MN", "cells": "CEM", "result": "7.6 µg/mL"}
{"smiles": "COc1ccc(C)cc1CS(=O)(=O)c1cccc[n+]1[O-]", "strain": "IIIB", "cells": "CEM", "changes": "RT-L100I", "result": "40 µg/mL"}
{"smiles": "CCc1c(Cc2cccc3ccccc23)nc(SCC(=O)c2ccccc2)[nH]c1=O", "strain": "IIIB", "cells": "C8166", "result": "0.579 µM"}
{"smiles": "Cc1cccc(N2C(=O)CSC2c2c(C(F)(F)F)ccc(Cl)c2F)n1", "strain": "IIIB", "cells": "CEM", "result": "1.15 µM"}
{"smiles": "Cc1occc1C(=S)Nc1ccc(Cl)c(/C=N/OCc2ccccc2)c1", "cells": "CEM", "changes": "RT-Y181C", "result": "2.3 µM"}
{"smiles": "COc1cccc(F)c1C1SCC(=O)N1c1cc(C)cc(C)n1", "strain": "IIIB", "cells": "CEM", "result": "0.391 µM"}
{"smiles": "CC(C)OC(=O)c1cc(NC(=S)c2cccs2)ccc1Cl", "cells": "CEM", "changes": "RT-L100I", "result": "2 µM"}
{"smiles": "Cc1cccnc1CN(C)Cc1nc2ccccc2[nH]1", "strain": "IIIB", "cells": "C8166", "result": "2.126 µM"}
{"smiles": "Cc1ccc(C)c(CS(=O)(=O)c2ccccn2)c1", "strain": "IIIB", "cells": "MT-2", "result": "8.8 µg/mL"}
{"smiles": "CC(C)(C)OC(=O)N[C@@H](CC1CCCCC1)[C@@H](O)CC(=O)N[C@@H](CCC(=O)O)C(=O)NCCCc1ccccc1", "strain": "IIIB", "cells": "C8166", "result": "<20 µg/mL"}
{"smiles": "O=C1c2ccccc2C(=O)N1CC1C2CC3CC(C2)CC1C3", "strain": "IIIB", "cells": "CEM", "result": ">4 µg/mL"}
{"smiles": "CC(C)=CCOc1cc(NC(=S)c2ccoc2C)ccc1Cl", "cells": "CEM", "changes": "RT-L100I", "result": "0.021 µM"}
{"smiles": "Cc1cccc(CS(=O)(=O)c2cccc[n+]2[O-])c1", "strain": "IIIB", "cells": "CEM", "changes": "RT-K103N", "result": "16 µg/mL"}
{"smiles": "COc1ccc(C(=O)CSc2nc(Cc3ccccc3)c(C)c(=O)[nH]2)cc1", "strain": "IIIB", "cells": "C8166", "result": "1.47 µM"}
{"smiles": "Cc1ccsc1C(=S)Nc1ccc(Cl)c(C(=O)OC(C)C)c1", "strain": "IIIB", "cells": "CEM", "result": "0.06 µM"}
{"smiles": "COc1cc([C@@H]2c3cc(OC)c(OC)cc3C[C@@H](C)[C@H]2C)ccc1O", "cells": "C8166", "result": "4.5 µM"}
{"smiles": "CC(C)OC(=O)c1cc(NC(=S)c2ccccc2N)ccc1Cl", "cells": "CEM", "changes": "RT-V106A", "result": "15 µM"}
{"smiles": "Cc1cn([C@H]2CC[C@@H](OCC(=O)O)C2)c(=O)[nH]c1=O", "strain": "IIIB", "cells": "CEM", "result": ">250 µM"}
{"smiles": "COCCCCCCCCCCCC(=O)OC[C@H]1O[C@@H](n2cc(C)c(=O)[nH]c2=S)C[C@@H]1F", "cells": "MT-2", "result": "~0.05 µM"}
{"smiles": "Cc1ccsc1C(=O)Nc1ccc(Cl)c(/C=N/OC(C)(C)C)c1", "cells": "CEM", "changes": "RT-E138K", "result": "4.4 µM"}
{"smiles": "Cc1ccnc(N2C(=O)CSC2c2c(F)ccc(C)c2Cl)n1", "strain": "IIIB", "cells": "CEM", "result": "0.338 µM"}
{"smiles": "CCCCCCCCCCCCCCCC(=O)NC1C(COP(=O)(O)OC2CC(COP(=O)(O)OC3C(O)C(CO)OC3n3cnc4c(N)ncnc43)OC2n2cnc3c(N)ncnc32)OC(n2cnc3c(N)ncnc32)C1O", "result": "<100 µM"}
{"smiles": "Cc1c(Cc2cccc3ccccc23)nc(SCCc2ccccc2)[nH]c1=O", "strain": "IIIB", "cells": "C8166", "result": "5.4 µM"}
{"smiles": "CC1CN(c2cc3c(cc2F)c(=O)c(C(=O)O)cn3-c2ccc(Cn3cncn3)cc2)CCN1c1ccccc1", "cells": "PBL", "result": "0.08 µM"}
{"smiles": "O=C(O)c1cn(-c2ccc(Cn3cncn3)cc2)c2cc(N3CCN(c4cccc5ccccc45)CC3)ccc2c1=O", "cells": "PBL", "result": "0.7 µM"}
{"smiles": "CCSCCCCCCCCCCC(=O)OC[C@H]1O[C@@H](n2cc(C)c(=O)[nH]c2=S)C[C@@H]1F", "cells": "MT-2", "result": "~0.05 µM"}
{"smiles": "CCCCCCCCCCCCCCCC(=O)NC1C(COP(=O)(O)OC2C(O)C(COP(=O)(O)OC3CC(CO)OC3n3cnc4c(N)ncnc43)OC2n2cnc3c(N)ncnc32)OC(n2cnc3c(N)ncnc32)C1O", "result": "<100 µM"}
{"smiles": "COc1ccc(NC(=O)c2ccoc2C)cc1CC(=O)OC(C)C", "strain": "IIIB", "cells": "CEM", "result": "1.2 µM"}
{"smiles": "O=C1c2ccccc2[C@@]2(O)[C@H]3C4CC5CC(C4)CC3(C5)CN12", "strain": "IIIB", "cells": "CEM", "result": ">4 µg/mL"}
{"smiles": "CC(C)C[C@H](NC(=O)[C@@H](O)[C@H](N)Cc1ccccc1)C(=O)O", "strain": "IIIB", "cells": "HuT-78 + HUT 78", "result": "<20 µg/mL"}
{"smiles": "O=C1c2cccc([N+](=O)[O-])c2C(=O)N1C12CC3CC(CC(C3)C1)C2", "strain": "IIIB", "cells": "CEM", "result": ">4 µg/mL"}
{"smiles": "Cc1ccsc1C(=S)Nc1ccc(Cl)c(/C=N/OC(C)(C)C)c1", "cells": "CEM", "changes": "RT-E138K", "result": "0.135 µM"}
{"smiles": "O=C1c2ccccc2C(=O)N1CCCC1C2CC3CC(C2)CC1C3", "strain": "IIIB", "cells": "CEM", "result": ">4 µg/mL"}
{"smiles": "CN(Cc1nc2ccccc2[nH]1)Cc1ncccc1CCCN", "strain": "IIIB", "cells": "C8166", "result": "10.4 µM"}
{"smiles": "CC(C)=CCOc1cc(NC(=S)c2ccsc2C)ccc1Cl", "cells": "CEM", "changes": "RT-K103N", "result": "0.057 µM"}
{"smiles": "CN(Cc1nc2ccccc2[nH]1)Cc1ncccc1CCC(=O)NCc1ccc(F)cc1", "strain": "IIIB", "cells": "C8166", "result": "3.936 µM"}
{"smiles": "CC1=C(C(=S)Nc2ccc(Cl)c(/C=N/OC(C)(C)C)c2)CCO1", "cells": "CEM", "changes": "RT-V106A", "result": "0.081 µM"}
{"smiles": "CC(C)(C)[Si](C)(C)OCC1O[C@@H](NC(=O)NC(=O)c2ccccc2)C(O[Si](C)(C)C(C)(C)C)C12OS(=O)(=O)C=C2N", "strain": "IIIB", "cells": "CEM", "result": "≥10 µM"}
{"smiles": "O=C(O)c1cn(-c2ccc(Cn3cncn3)cc2)c2cc(N3CCN(c4ccc(F)cc4F)CC3)c(F)cc2c1=O", "cells": "PBL", "result": "0.2 µM"}
{"smiles": "CC1=C(C(=S)Nc2ccc(Cl)c(C=NOC(C)(C)C)c2)CCCO1", "cells": "CEM", "changes": "RT-E138K", "result": "0.108 µM"}
{"smiles": "COc1cccc(F)c1C1SCC(=O)N1c1cccc(C)c1", "strain": "IIIB", "cells": "CEM", "result": "3.25 µM"}
{"smiles": "O=C(O)c1cn(-c2ccc(Cn3cncn3)cc2)c2cc(N3CCN(c4ccc(Cl)c(Cl)c4)CC3)c(F)cc2c1=O", "cells": "PBL", "result": "0.16 µM"}

Repeating the final 4 entries:

smiles	strain	cells	changes	result
O=C(O)c1cn(-c2ccc(Cn3cncn3)cc2)c2cc(N3CCN(c4ccc(F)cc4F)CC3)c(F)cc2c1=O		PBL		0.2 µM
CC1=C(C(=S)Nc2ccc(Cl)c(C=NOC(C)(C)C)c2)CCCO1		CEM	RT-E138K	0.108 µM
COc1cccc(F)c1C1SCC(=O)N1c1cccc(C)c1	IIIB	CEM		3.25 µM
O=C(O)c1cn(-c2ccc(Cn3cncn3)cc2)c2cc(N3CCN(c4ccc(Cl)c(Cl)c4)CC3)c(F)cc2c1=O		PBL		0.16 µM

Rows are shuffled and stem from different studies. ECn is the concentration giving n% inhibition of infection, replication or growth.